Results of unrelated studies side by side (data: NIAID ChemDB).

Shared fields: tests in culture; agent: Candida albicans; endpoint: MIC

Rows are shuffled and stem from different studies.

COc1ccnc(C(=O)N[C@H]2COC(=O)[C@H](Cc3ccccc3)[C@@H](OC(=O)C(C)C)[C@H](C)OC2=O)c1O ; strain or isolate: IFO1061 ; result: 0.2 µg/mL
Cc1ccc(-n2nc(C)c(C3C(C#N)=C(N)OC4=C3C(=O)CCC4)c2Oc2ccc(Cl)cc2)cc1 ; strain or isolate: MTCC 227 ; result: 250 µg/mL
Cc1c(/C=C/[N+](=O)[O-])c2ccccc2n1C ; result: 400 µg/mL
CCN1C(C#N)=C(C#N)N=C(c2ccsc2)C1/C=C/c1ccc(-c2ccccc2)cc1 ; strain or isolate: RCPF Y-401/NCTC 885-653 ; read by: broth dilution / visual reading ; result: >100 µg/mL
COC(=O)[C@@H](Br)[C@@H](F)C(=O)OC ; strain or isolate: ATCC 10231 ; result: 30 µg/mL
CCN1C[C@]2(COC)CC[C@H](O)[C@]34C1[C@@](O)([C@@H](OC)[C@H]23)[C@@]1(O)C[C@H](OC)C2C[C@@H]4[C@@H]1[C@H]2OC(C)=O ; result: 4 µg/mL
CCN1C(C#N)=C(C#N)N=C(c2cccs2)C1/C=C/c1ccccc1 ; strain or isolate: RCPF Y-401/NCTC 885-653 ; read by: broth dilution / visual reading ; result: >100 µg/mL
CCC(C)CC(C)CCCCCCCCC(=O)N[C@H]1C[C@@H](O)[C@H](NCCN)NC(=O)[C@@H]2[C@@H](O)CCN2C(=O)[C@H]([C@H](O)CCN)NC(=O)[C@H]([C@H](O)[C@@H](O)c2ccc(O)cc2)NC(=O)[C@@H]2C[C@@H](O)CN2C(=O)[C@H]([C@@H](C)O)NC1=O ; strain or isolate: 1954 ; read by: broth dilution ; result: 0.25 µg/mL
CCCCCCOC(=O)/C=C\C(=O)OCCCCCC ; strain or isolate: ATCC 10231 ; result: >100 µg/mL
Cc1ccc(-n2nc(C)c(C3C(C#N)=C(N)OC4=C3C(=O)CCC4)c2Oc2ccccc2)cc1 ; strain or isolate: MTCC 227 ; result: 250 µg/mL
CCCC[C@H]1C(=O)O[C@H](C)C(CCCNC(=O)c2cccc(NC=O)c2O)C(=O)O[C@@H](C)[C@@H]1OC(=O)CC(C)C ; strain or isolate: IFO1061 ; result: 6.25 µg/mL
Cc1nn(-c2ccccc2)c(Oc2ccccc2)c1C1C(C#N)=C(N)OC2=C1C(=O)CC(C)(C)C2 ; strain or isolate: MTCC 227 ; result: 500 µg/mL
C[C@@H](c1nc(-c2ccc(C#N)cc2)cs1)[C@](O)(Cn1cnnc1)c1ccc(F)cc1F ; strain or isolate: Isogenic isolate 7 MDR1 (25X) ; result: ≤0.008 µg/mL
COc1ccc(Oc2c(C3C(C#N)=C(N)OC4=C3C(=O)CCC4)c(C)nn2-c2ccc(C)cc2)cc1 ; strain or isolate: MTCC 227 ; result: 200 µg/mL
CCN1C(C#N)=C(C#N)N=C(c2ccsc2)C1/C=C/c1ccccc1 ; strain or isolate: RCPF Y-401/NCTC 885-653 ; read by: broth dilution / visual reading ; result: >100 µg/mL
CCCOC(=O)/C=C\C(=O)OCCC ; strain or isolate: ATCC 10231 ; result: >100 µg/mL
CO[C@H]1OC(=O)C[C@@]2(O)[C@@]13O[C@@H]3C1OC(=O)[C@@]3(C)CCC[C@@]2(C)[C@@H]13 ; strain or isolate: ATCC 90029 ; result: >64 µg/mL
C/C(=C\c1c(C)[nH]c2ccccc12)[N+](=O)[O-] ; result: 25 µg/mL
NC(=NCCCCCCN=C(N)/N=C(\N)Nc1ccc(Cl)cc1)/N=C(\N)Nc1ccc(Cl)cc1 ; result: 55 µM
Cn1cc(/C=C/[N+](=O)[O-])c2ccccc21 ; result: 400 µg/mL
CCCC[C@H]1C(=O)O[C@H](C)C(CCCCCCCCCCCCCCCNC(=O)c2cccc(NC=O)c2O)C(=O)O[C@@H](C)[C@@H]1OC(=O)CC(C)C ; strain or isolate: IFO1061 ; result: >100 µg/mL
C(=C\c1ccccc1)/CN(Cc1cccc2ccccc12)n1cnnc1 ; result: >200 µM
CC(C/C=C/C=C/CC/C=C\C=C\CCC(C)(C)C)C(O)C(O)C(O)C(O)C(O)C1OC(=O)C(O)C1O ; strain or isolate: IAM4888 ; result: 6.3 µg/mL
CCN1C[C@]2(CO)CC[C@H](OC)[C@]34C5CC6[C@H](OC)C5[C@](O)(C[C@@H]6OC)[C@@](O)(C13)[C@@H](OC)[C@H]24 ; result: 4 µg/mL
CCCCOC(=O)/C=C\C(=O)OCCCC ; strain or isolate: ATCC 10231 ; result: >100 µg/mL
Cc1nn(-c2ccccc2)c(Oc2ccc(Cl)cc2)c1C1C(C#N)=C(N)OC2=C1C(=O)CC(C)(C)C2 ; strain or isolate: MTCC 227 ; result: 250 µg/mL
CCCCCCOC(=O)C(F)C(Br)C(=O)OCCCCCC ; strain or isolate: ATCC 10231 ; result: >100 µg/mL
COc1ccnc(C(=O)NCCCCCCCCCCCC2COC(=O)C(Cc3ccccc3)C(OC(=O)C(C)C)C(C)OC2=O)c1O ; strain or isolate: IFO1061 ; result: >100 µg/mL
Cc1ccc(-n2nc(C)c(C3C(C#N)=C(N)OC4=C3C(=O)CC(C)(C)C4)c2Oc2ccc(Cl)cc2)cc1 ; strain or isolate: MTCC 227 ; result: 250 µg/mL
CC/C=C/[C@H](CC)C/C(=C/[C@@]1(CC)C[C@H](CC)[C@H](CC(=O)O)OO1)CC ; result: 5 µg/mL
[Na+].[O-]Cl ; strain or isolate: ATCC 10231 ; read by: broth dilution ; result: 50 µg/mL
COc1ccnc(C(=O)NCCCCCCCCCCCCCCCC2COC(=O)C(Cc3ccccc3)C(OC(=O)C(C)C)C(C)OC2=O)c1O ; strain or isolate: IFO1061 ; result: >100 µg/mL
CCN1CC(c2cccs2)=NC(C#N)=C1C#N ; strain or isolate: RCPF Y-401/NCTC 885-653 ; read by: broth dilution / visual reading ; result: >100 µg/mL
CCCCCOC(=O)/C=C/C(=O)OCCCCC ; strain or isolate: ATCC 10231 ; result: >100 µg/mL
Cc1ccc(Oc2c(C3C(C#N)=C(N)OC4=C3C(=O)CC(C)(C)C4)c(C)nn2-c2ccc(C)cc2)cc1 ; strain or isolate: MTCC 227 ; result: >1000 µg/mL
CN(C/C=C/c1ccccc1)Cc1cccc2ccccc12 ; result: >200 µM
COc1ccnc(C(=O)NCC=C(C)C=C(C)C2COC(=O)C(Cc3ccccc3)C(OC(=O)C(C)C)C(C)OC2=O)c1O ; strain or isolate: IFO1061 ; result: >100 µg/mL
Cc1nn(-c2ccccc2)c(Oc2ccc(Cl)cc2)c1C1C(C#N)=C(N)OC2=C1C(=O)CCC2 ; strain or isolate: MTCC 227 ; result: 100 µg/mL
CCN1C(C#N)=C(C#N)N=C(c2cccs2)C1/C=C/c1ccc(-c2ccccc2)cc1 ; strain or isolate: RCPF Y-401/NCTC 885-653 ; read by: broth dilution / visual reading ; result: >100 µg/mL
O=c1[nH]cc(F)c(=O)[nH]1 ; strain or isolate: ATCC 10231 ; result: >100 µg/mL
O=[N+]([O-])/C=C/c1c(-c2ccccc2)[nH]c2ccccc12 ; result: 400 µg/mL

A second listing of 5 rows from above:

{"smiles": "O=c1[nH]cc(F)c(=O)[nH]1", "strain or isolate": "ATCC 10231", "result": ">100 µg/mL"}
{"smiles": "Cc1ccc(-n2nc(C)c(C3C(C#N)=C(N)OC4=C3C(=O)CCC4)c2Oc2ccccc2)cc1", "strain or isolate": "MTCC 227", "result": "250 µg/mL"}
{"smiles": "CCC(C)CC(C)CCCCCCCCC(=O)N[C@H]1C[C@@H](O)[C@H](NCCN)NC(=O)[C@@H]2[C@@H](O)CCN2C(=O)[C@H]([C@H](O)CCN)NC(=O)[C@H]([C@H](O)[C@@H](O)c2ccc(O)cc2)NC(=O)[C@@H]2C[C@@H](O)CN2C(=O)[C@H]([C@@H](C)O)NC1=O", "strain or isolate": "1954", "read by": "broth dilution", "result": "0.25 µg/mL"}
{"smiles": "Cc1c(/C=C/[N+](=O)[O-])c2ccccc2n1C", "result": "400 µg/mL"}
{"smiles": "[Na+].[O-]Cl", "strain or isolate": "ATCC 10231", "read by": "broth dilution", "result": "50 µg/mL"}